Measured values from several laboratories, pooled; numbers as filed in NIAID ChemDB.

Shared fields: enzyme or target tests; agent: HIV-1; protein: Reverse transcriptase

An empty or dashed field is not shown. Rows are shuffled and stem from different studies. ICn: concentration for n% inhibition. Two numbers with a dash give a range or band.

structure	measure	strain or isolate	read by	mutations	result
c1ccc(-c2nnc3c4ccccc4c(N4CCc5ccccc5C4)nn23)cc1	IC50	KER2008	RT activity / fluorescence		48.2 µM
CC(C)c1cnc(C2C=C(c3ccccc3F)N=C(N)S2)cn1	IC50		RT activity / ELISA / absorbance		26.04 µM
COC(=O)c1cc(C(=C2CCN(C(=O)OC)CC2)c2cc(Cl)c(OC)c(C(=O)OC)c2)cc(Cl)c1OC	IC50		nucleotide incorporation		>100 µM
O=c1cc(-c2ccc(O)c(-c3c(O)cc4oc(-c5ccc(O)cc5)cc(=O)c4c3O)c2)oc2cc(O)cc(O)c12	IC50		nucleotide incorporation / radiometric		144.4 µM
COC(=O)N1CCC(=C(c2cc(Cl)c(OC)c(C(=O)O)c2)c2cc(Cl)c(OC)c(C(=O)O)c2)CC1	IC50		nucleotide incorporation		>100 µM
CC(=O)Nc1cc2c(cc1OC(F)(F)F)CCN(c1nn3c(C)nnc3c3ccccc13)C2	IC50	IIIB	RT activity / fluorescence		0.61 µM
Nc1sc2c(c1C(=O)Nc1ccccn1)CCCCC2	IC50		nucleotide incorporation / fluorescence		>100 µM
CCCCOC(=O)CC(OCC)n1cc(C)c(=O)[nH]c1=O	IC50		ELISA		1.05 µM
O=c1oc(-c2ccc(O)cc2)nc2sc3c(c12)CCCCC3	IC50		nucleotide incorporation / fluorescence		21.1 µM
Nc1ncnn2c(C[C@@H](CF)OCP(=O)(O)OP(=O)(O)OP(=O)(O)O)cnc12	IC50		nucleotide incorporation / radiometric		0.05–0.25 µM
CCOC(=O)N1CCC(=C(c2cc(C)c(OC)c(C(=O)OC)c2)c2cc(C)c(OC)c(C(=O)OC)c2)CC1	IC50		nucleotide incorporation		>100 µM
O=c1oc(-c2ccc(Cl)cc2)nc2sc3c(c12)CCCCC3	IC50		nucleotide incorporation / fluorescence		>100 µM
Nc1ncnc2c(C[C@H](OCP(=O)(O)OP(=O)(O)OP(=O)(O)O)C(F)F)cnn12	IC50		nucleotide incorporation / radiometric		≥0.25 µM
NC(=O)c1c(NC(=O)c2ccccc2O)sc2c1CCCCC2	IC50		nucleotide incorporation / fluorescence		>100 µM
Cc1cn([C@@H]2O[C@H](COP(=O)(O)OP(=O)(O)OP(=O)(O)O)C[C@@H]2F)c(=O)[nH]c1=O	IC50		nucleotide incorporation		2.22 µM
O=c1oc(-c2ccccc2F)nc2sc3c(c12)CCCCC3	IC50		nucleotide incorporation / fluorescence		81 µM
CC(C)c1cnc(C2C=C(c3ccccc3Cl)N=C(N)S2)cn1	IC50		RT activity / ELISA / absorbance		31.44 µM
C=CC(C)(C)n1cc(C2=C(O)C(=O)C(c3cn(C(C)(C)C=C)c4ccccc34)=C(O)C2=O)c2ccccc21	Ki		binding		2.3 µM
CCCCCCCCCOc1cccc(C(=O)Nc2c(O)c3ccc(O[C@@H]4OC(C)(C)[C@H](CO)[C@@H](OC(N)=O)[C@H]4O)c(C)c3oc2=O)c1	IC50		radiometric		40 µM
CCN1c2ncc(CCOc3cccc4c3CNC4=O)cc2C(=O)Nc2c(C)ccnc21	IC50	IIIB	nucleotide incorporation / radiometric		<0.05 µM
O=c1[nH]c(=O)n([C@H]2C[C@H](O)[C@@H](COP(=O)(O)OP(=O)(O)OP(=O)(O)O)O2)cc1/C=C/Br	IC50		nucleotide incorporation		3.58 µM
CCN1c2ncc(CCOc3ccc4c(c3)CN(C)C(=O)N4C)cc2C(=O)N(C)c2cccnc21	IC50	IIIB	nucleotide incorporation / radiometric		<0.05 µM
CCc1cc(NCc2nc3c(C)ccc(C)c3o2)c(=O)[nH]c1C	IC50		nucleotide incorporation	RT-Y181F	0.0235 µM
C[C@H](Cc1nnc2c(N)ncnn12)OCP(=O)(O)OP(=O)(O)OP(=O)(O)O	IC50		nucleotide incorporation / radiometric		≥0.25 µM
Nc1nc2c(ncn2COC(CO)COP(=O)(O)OP(=O)(O)OP(=O)(O)O)c(=O)[nH]1	IC50		nucleotide incorporation		20 µM
CC(Cc1ccc2c(=O)[nH]c(N)nn12)OCP(=O)(O)OP(=O)(O)OP(=O)(O)O	IC50		nucleotide incorporation / radiometric		<0.05 µM
Nc1nc2c(ncn2COCCOP(=O)(O)OP(=O)(O)OP(=O)(O)O)c(=O)[nH]1	IC50		nucleotide incorporation		0.34 µM
COc1ccc(C2=CC(c3cnc(C(C)C)cn3)SC(N)=N2)cc1	IC50		RT activity / ELISA / absorbance		>100 µM
Nc1ccn([C@@H]2CS[C@H](COP(=O)(O)OP(=O)(O)OP(=O)(O)O)O2)c(=O)n1	IC50		nucleotide incorporation	RT-K65R	2.2 µM
CCOC(=O)CC(OCC)n1cc(F)c(=O)[nH]c1=O	IC50		ELISA		27.1 µM
CCN1c2ncc(CCOc3cccc4c3CN(C)C(=O)N4C)cc2C(=O)Nc2c(C)ccnc21	IC50	IIIB	nucleotide incorporation / radiometric		<0.05 µM
CC(C)c1cnc(C2C=C(c3ccc(F)cc3)N=C(N)S2)cn1	IC50		RT activity / ELISA / absorbance		15.32 µM
CC1=C(C#C/C(C)=C/C=C/C(C)=C/C=C/C=C(C)/C=C/C=C(\C)C(=O)C[C@@]23O[C@]2(C)C[C@@H](O)CC3(C)C)C(C)(C)CC(O)C1	IC50		nucleotide incorporation / radiometric		27.6 µM
CCOC(CC(=O)OC)n1cc(C)c(=O)[nH]c1=O	IC50		ELISA		0.4 µM
Nc1ncnc2c(C[C@H](CF)OCP(=O)(O)OP(=O)(O)OP(=O)(O)O)cnn12	IC50		nucleotide incorporation / radiometric		<0.05 µM
CCN1c2ncc(CCOc3cccc4c3CNC(=O)C4)cc2C(=O)N(C)c2cccnc21	IC50	IIIB	nucleotide incorporation / radiometric		<0.05 µM
Nc1ncnc2c(C[C@@H](OCP(=O)(O)OP(=O)(O)OP(=O)(O)O)C(F)F)cnn12	IC50		nucleotide incorporation / radiometric		0.05–0.25 µM
FC(F)c1nnc2c3ccccc3c(N3CCc4ccccc4C3)nn12	IC50	IIIB	RT activity / fluorescence		0.24 µM
CCN1c2ncc(CCOc3cccc4c3CCNC4=O)cc2C(=O)Nc2c(C)ccnc21	IC50	IIIB	nucleotide incorporation / radiometric		<0.05 µM
CC(C)c1cnc(C2C=C(c3cccc(O)c3)N=C(N)S2)cn1	IC50		RT activity / ELISA / absorbance		72.63 µM
Cc1cn([C@H]2C[C@H](F)[C@@H](COP(=O)(O)OP(=O)(O)OP(=O)(O)O)O2)c(=O)[nH]c1=O	IC50		nucleotide incorporation		<0.05 µM
COc1cccc(C2=CC(c3cnc(C(C)C)cn3)SC(N)=N2)c1	IC50		RT activity / ELISA / absorbance		>100 µM
CCOC(=O)CC(OCC)n1ccc(=O)[nH]c1=O	IC50		ELISA		0.45 µM
N#Cc1cc(Cl)cc(Oc2c(Cl)ccc(OCc3[nH]nc4ncccc34)c2F)c1	IC50		scintillation proximity / radiometric		0.011 µM
Nc1ncnc2c1ncn2[C@H]1CC[C@@H](COP(=O)(O)OP(=O)(O)OP(=O)(O)O)O1	IC50				0.5 µM
c1ccc2c(c1)CN(c1nn3c(C4CC4)nnc3c3ccccc13)C2	IC90	IIIB	RT activity / fluorescence		>100 µM
Nc1sc2c(c1C(=O)Nc1ccc(Cl)cc1)CCCCC2	IC50		nucleotide incorporation / fluorescence		39 µM
Nc1ncnc2c1ncn2[C@H]1CC[C@@H](COP(=O)(O)OP(=O)(O)OP(=O)(O)O)O1	Ki		nucleotide incorporation	RT-K65R	>100 µM
CCN1C(=O)C=CC1=O	IC50		nucleotide incorporation		750 µM
CCN1c2ncc(CCOc3cccc4c3CNC(=O)N4)cc2C(=O)N(C)c2cccnc21	IC50	IIIB	nucleotide incorporation / radiometric		<0.05 µM
C[C@H](Cc1cnc2c(N)ncnn12)OCP(=O)(O)OP(=O)(O)OP(=O)(O)O	IC50		nucleotide incorporation / radiometric		<0.05 µM

For reference, 3 entries again:

structure,measure,strain or isolate,read by,mutations,result
Nc1nc2c(ncn2COCCOP(=O)(O)OP(=O)(O)OP(=O)(O)O)c(=O)[nH]1,IC50,,nucleotide incorporation,,0.34 µM
CCN1c2ncc(CCOc3cccc4c3CCNC4=O)cc2C(=O)Nc2c(C)ccnc21,IC50,IIIB,nucleotide incorporation / radiometric,,<0.05 µM
CC(C)c1cnc(C2C=C(c3ccccc3Cl)N=C(N)S2)cn1,IC50,,RT activity / ELISA / absorbance,,31.44 µM